Results as given in paper PMC6222509, “Dibasic Derivatives of Phenylcarbamic Acid against Mycobacterial Strains: Old Drugs and New Tricks?” (Molecules : A Journal of Synthetic Chemistry and Natural …, 2018).
In brackets after ≈: the same amount, converted by molar mass. Where two headings read alike, the source gives them in different places.

Experiments:
[1] = tested on: M. kansasii 6509/96 clinical isolate (MK 6509/96); assay: microbe, parasite or virus in culture; settings: Mycobacterium kansasii
[2] = tested on: M. kansasii 6509/96 clinical isolate (MK 6509/96)
[3] = 168 h, read-out: MIC MK 6509/96 7-d, 7-day cultivation
[4] = 336 h, read-out: MIC MK 6509/96 14-d, 14-day cultivation
[5] = 504 h, read-out: MIC MK 6509/96 21-d, 21-day cultivation
[6] = 168 h, read-out: MIC MK 6509/96 7-d
[7] = 336 h, read-out: MIC MK 6509/96 14-d
[8] = 504 h, read-out: MIC MK 6509/96 21-d

| SMILES | MIC [1, 3] [µM] | MIC [1, 4] [µM] | MIC [1, 5] [µM] | MIC [1, 6] [µM] | MIC [1, 7] [µM] | MIC [1, 8] [µM] | other results |
| --- | --- | --- | --- | --- | --- | --- | --- |
| CCCCOc1cccc(NC(=O)OC(CN(CCC)CCC)CN2CCCCCC2)c1 (stereo not shown) [1m] | 8 (≈ 3.58 µg/mL) | 16 (≈ 7.16 µg/mL) | 16 (≈ 7.16 µg/mL) |  |  |  |  |
| CCCCCCOc1ccccc1NC(=O)OC(CN(CCC)CCC)CN1CCCCCC1 (stereo not shown) [1k] | 16 (≈ 7.61 µg/mL) | 32 (≈ 15.2 µg/mL) | 32 (≈ 15.2 µg/mL) |  |  |  |  |
| CCCCCCCOc1cccc(NC(=O)OC(CN(CCC)CCC)CN2CCCCCC2)c1.Cl.Cl (stereo not shown) [1p, 1-[2-[({[3-(heptyloxy)phenyl]amino}carbonyl)-oxy]-3-(dipropylammonio)propyl]azepanium dichloride] |  |  |  |  |  |  | MIC MK 6509/96 7-d ([2]; 7-day cultivation): 4 µM; MIC MK 6509/96 14-d ([2]; 14-day cultivation): 8 µM; MIC MK 6509/96 21-d ([2]; 21-day cultivation): 8 µM |
| CCCCCOc1cccc(NC(=O)OC(CN(CCC)CCC)CN2CCCCCC2)c1.Cl.Cl (stereo not shown) [1n, 1-[2-[({[3-(pentyloxy)phenyl]amino}carbonyl)oxy]-3-(di-propylammonio)propyl]azepanium dichloride] |  |  |  | 4 | 8 | 8 |  |
| CCCCCCCOc1ccccc1NC(=O)OC(CN(CCC)CCC)CN1CCCC1.Cl.Cl (stereo not shown) [1d, 1-[2-[({[2-(heptyl-oxy)phenyl]amino}carbonyl)oxy]-3-(dipropylammonio)propyl]pyrrolidinium dichloride] |  |  |  | 8 | 16 | 16 |  |
| CCCCCCOc1cccc(NC(=O)OC(CN(CCC)CCC)CN2CCCC2)c1 (stereo not shown) [1g] | 8 (≈ 3.58 µg/mL) | 8 (≈ 3.58 µg/mL) | 16 (≈ 7.16 µg/mL) |  |  |  |  |
| CCCCCOc1ccccc1NC(=O)OC(CN(CCC)CCC)CN1CCCCCC1.O=C(O)C(=O)O (stereo not shown) [1j, 1-[2-[({[2-(Pentyloxy)phenyl]amino}carbonyl)oxy]-3-(dipropylammonio)propyl]-azepanium oxalate] |  |  |  | 16 | 32 | 32 |  |
| CCCCCOc1ccccc1NC(=O)OC(CN(CCC)CCC)CN1CCCC1 (stereo not shown) [1b] | 32 (≈ 13.9 µg/mL) | 32 (≈ 13.9 µg/mL) | 62.5 (≈ 27.1 µg/mL) |  |  |  |  |
| CCCCCCOc1ccccc1NC(=O)OC(CN(CCC)CCC)CN1CCCC1 (stereo not shown) [1c] | 16 (≈ 7.16 µg/mL) | 16 (≈ 7.16 µg/mL) | 16 (≈ 7.16 µg/mL) |  |  |  |  |
| CCCCCCOc1cccc(NC(=O)OC(CN(CCC)CCC)CN2CCCCCC2)c1.Cl.Cl (stereo not shown) [1o, 1-[2-[({[3-(hexyloxy)phenyl]amino}-carbonyl)oxy]-3-(dipropylammonio)propyl]azepanium dichloride] |  |  |  | 4 | 8 | 8 |  |
| CCCCOc1ccccc1NC(=O)OC(CN(CCC)CCC)CN1CCCC1 (stereo not shown) [1a] | 32 (≈ 13.4 µg/mL) | 62.5 (≈ 26.2 µg/mL) | 62.5 (≈ 26.2 µg/mL) |  |  |  |  |
| CCCCCCCOc1cccc(NC(=O)OC(CN(CCC)CCC)CN2CCCC2)c1.Cl.Cl (stereo not shown) [1h, 1-[2-[({[3-(heptyloxy)phenyl]amino}carbonyl)oxy]-3-(dipropylammonio)propyl]pyrrolidinium dichloride] |  |  |  | 4 | 4 | 8 |  |
| CCCCCOc1cccc(NC(=O)OC(CN(CCC)CCC)CN2CCCC2)c1.Cl.Cl (stereo not shown) [1f, 1-[2-[({[3-(pentyloxy)phenyl]amino}carbonyl)oxy]-3-(dipropylammonio)propyl]-pyrrolidinium dichloride] |  |  |  | 8 | 16 | 16 |  |
| CCCCOc1ccccc1NC(=O)OC(CN(CCC)CCC)CN1CCCCCC1 (stereo not shown) [1i] | 16 (≈ 7.16 µg/mL) | 32 (≈ 14.3 µg/mL) | 32 (≈ 14.3 µg/mL) |  |  |  |  |
| CC1COc2c(N3CCN(C)CC3)c(F)cc3c(=O)c(C(=O)O)cn1c23 (stereo not shown) [OFLX, ofloxacin, reference compound] | 0.5 (≈ 0.181 µg/mL) | 0.5 (≈ 0.181 µg/mL) | 1 (≈ 0.361 µg/mL) |  |  |  |  |
| CCCCOc1cccc(NC(=O)OC(CN(CCC)CCC)CN2CCCC2)c1 (stereo not shown) [1e] | 16 (≈ 6.71 µg/mL) | 16 (≈ 6.71 µg/mL) | 32 (≈ 13.4 µg/mL) |  |  |  |  |
| CC[C@@H](CO)NCCN[C@@H](CC)CO [EMB, ethambutol, reference compound] | 1 (≈ 0.204 µg/mL) | 2 (≈ 0.409 µg/mL) | 2 (≈ 0.409 µg/mL) |  |  |  |  |
| NNC(=O)c1ccncc1 [INH, isoniazid, reference compound] | 2 (≈ 0.274 µg/mL) | 4 (≈ 0.549 µg/mL) | 8 (≈ 1.1 µg/mL) |  |  |  | MIC ([1]; read-out: MIC MK 6509/96, over 7-d to 21-d cultivation, time not given): 2 to 8 µM (≈ 0.274 to 1.1 µg/mL) |
